Data reported in patent publication US20120095211A1, “SUBSTITUTED PROLINE INHIBITORS OF HEPATITIS C VIRUS REPLICATION” (InterMune, Inc., priority 2010, published 2012).
pEC50, pIC50: −log10 of the molar value.

Amino acid sequences for entries named in this document (tags omitted). Residues count along the entry.
UniProt P27958, 1027-1657 limits assumed: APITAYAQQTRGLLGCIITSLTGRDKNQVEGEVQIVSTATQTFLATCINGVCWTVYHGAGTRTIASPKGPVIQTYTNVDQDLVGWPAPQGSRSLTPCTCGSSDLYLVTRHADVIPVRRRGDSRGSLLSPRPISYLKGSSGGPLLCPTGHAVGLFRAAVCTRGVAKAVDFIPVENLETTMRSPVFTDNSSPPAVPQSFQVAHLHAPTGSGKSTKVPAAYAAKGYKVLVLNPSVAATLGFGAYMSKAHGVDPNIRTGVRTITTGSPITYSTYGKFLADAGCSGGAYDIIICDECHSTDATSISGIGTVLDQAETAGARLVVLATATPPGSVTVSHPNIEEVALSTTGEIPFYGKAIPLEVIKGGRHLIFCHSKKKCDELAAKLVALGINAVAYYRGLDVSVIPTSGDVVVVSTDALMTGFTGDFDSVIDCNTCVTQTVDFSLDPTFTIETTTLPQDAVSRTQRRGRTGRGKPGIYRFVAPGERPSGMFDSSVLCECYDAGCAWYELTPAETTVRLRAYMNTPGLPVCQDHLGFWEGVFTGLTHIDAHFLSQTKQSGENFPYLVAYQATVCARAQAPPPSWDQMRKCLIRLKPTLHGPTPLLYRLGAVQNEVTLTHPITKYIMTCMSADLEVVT
UniProt P27958, 1658-1711 partner limits assumed: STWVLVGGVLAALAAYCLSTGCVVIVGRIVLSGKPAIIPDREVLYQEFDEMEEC

What was measured:
NS3/NS4 complexes = NS3/NS4 complexes (Hepatitis C virus genotype 1a, UniProt P27958); test: NS3/NS4 inhibition assay (inhibitory concentrations of test compounds); format: biochemical; conditions: NS3-NS4 activity; 23° C., pH 7.5, 25 μM NS4A peptide; tested form: HCl
Text: (§1) NS3-NS4 inhibition activity can be determined using known assay methods. For example, NS3/NS4 complexes may be formed and inhibitory concentrations of test compounds determined as described in U.S. Patent Application Publication Number 2007/0054842 paragraph numbers 1497-1509, which is incorporated herein by reference in its entirety. Similarly, hepatitis C replicon EC50 may be determined using known assay methods such as described in U.S. Patent Application Publication Number 2007/0054842 paragraph numbers 1510-1515, which is incorporated herein by reference in its entirety. Assays may be conducted at ambient temperature (23° C.) in assay buffer containing 50 mM Tris-HCl, pH 7.5, 15% glycerol, 0.6 mM Lauryldimethylamine Oxide (LDAO), 25 μM NS4A peptide, and 10 mM Dithiothreitol (DTT).

hepatitis C replicon = hepatitis C replicon EC50 assay; format: cell-based, hepatitis C virus (HCV); conditions: tested form: HCl
Text: as §1

For `COc1ccc2c(O[C@H]3CN4C(=O)[C@@H](N)CCCCC/C=C\[C@@H]5C[C@@]5(C(=O)NS(=O)(=O)C5CC5)NC(=O)[C@@H]4[C@@H]3C)cc(-c3nc(C(C)C)cs3)nc2c1C`, the pIC50 (NS3/NS4 complexes) was greater than 8.00 and the pEC50 (hepatitis C replicon) was greater than 8.00.
